Anti-infective test results gathered from many reports (values: NIAID ChemDB through PubChem).

Shared fields: tests in culture; species: Respiratory syncytial virus; endpoint: EC50

An empty or dashed field is not shown. ECn: concentration that inhibits the pathogen or its effect by n%. Conditions beyond the fields shown may differ between rows. Two numbers with a dash give a range or band.

compound,strain or isolate,method,cells,result
COc1cc(OC)c(NC(=S)Nc2ccc(NC(=O)c3ccco3)c(C)c2)cc1Cl,,,HFF,>10 µg/mL
COC(=O)c1cc(Nc2ccc(Nc3nc(Nc4cccc(S(=O)(=O)N(CCC(N)=O)CCC(N)=O)c4)nc(Nc4cccc(S(=O)(=O)N(CCC(N)=O)CCC(N)=O)c4)n3)cc2S(=O)(=O)[O-])ccc1-c1ccc(Nc2ccc(Nc3nc(Nc4cccc(S(=O)(=O)N(CCC(N)=O)CCC(N)=O)c4)nc(Nc4cccc(S(=O)(=O)N(CCC(N)=O)CCC(N)=O)c4)n3)cc2S(=O)(=O)[O-])cc1C(=O)OC,A2,ELISA,HFF,>25 µM
O=C(Nc1ccc(NC(=S)Nc2cc(C(F)(F)F)cc(C(F)(F)F)c2)cc1)c1cocn1,,,HFF,>10 µg/mL
CCOC(=O)c1cc(C#N)c2[nH]c3ccccc3n2c1=O,LONG,plaque count,HEP-2,10 µg/mL
N=C(N)c1ncn([C@@H]2O[C@H](CO)[C@@H](O)[C@H]2O)n1,,,,1–100 µM
COc1ccc(CCNc2nc3ccccc3n2Cc2nc(C)ccc2O)cc1OC,,cytopathic effect,HeLa,10 µM
c1ccc2c(c1)CSSC2,Clinical isolate SM61-48 (B),cytopathic effect,HeLa,5.6 µM
COCCCNc1nc2c(C)cc(C)cc2n1Cc1nc(C)ccc1O,,cytopathic effect,HeLa,100 µM
O=c1[nH]cnc2c1ncn2C1C[C@H](CO)[C@@H](CO)C1,,,HeLa,>100 µg/mL
O=C(Nc1ccc(NC(=S)Nc2ccc(Cl)c(C(F)(F)F)c2)cc1)c1ccco1,,,HFF,>10 µg/mL
COC(=O)[C@]1(C)CCC[C@]2(C)c3cc(Br)c4[nH]ccc4c3CCC12,,plaque count,HeLa,>4 µg/mL
CCOC(=O)/C=C/C=C/[C@H]1O[C@@H](n2ccc(=O)[nH]c2=O)[C@H](O)[C@@H]1O,,,HeLa,≥200 µM
Clc1ccc2c(c1)CSSC2,LONG,cytopathic effect,HeLa,7.9 µM
COc1cc(OC)c(NC(=S)Nc2ccc(NC(C)=O)cc2)cc1Cl,A2,,HFF,>20 µM
Cc1cc(C)c2nc(NC3CCCCC3)n(Cc3nc(C)ccc3O)c2c1,,cytopathic effect,HeLa,100 µM
COC(=O)[C@]1(C)CCC[C@]2(C)c3cc(Br)c4nc[nH]c4c3CCC12,,plaque count,HeLa,>4 µg/mL
COc1ccc2c(c1)CSSC2,LONG,cytopathic effect,HeLa,9.7 µM
O=C(NC1CC1)c1cc2c(s1)-c1ccccc1N(C(=O)c1ccc(NC(=O)c3ccccc3-c3ccccc3)cc1)CC2,Clinical isolate SM61-48 (B),plaque count,HeLa,0.29 µM
CC(C)Oc1ccccc1NC(=O)Nc1ccc2cnccc2n1,,plaque count,,>30 µg/mL
COC(=O)[C@]1(C)CCC[C@]2(C)c3ccc4nc(-c5ccccc5)c(-c5ccccc5)nc4c3CCC12,,plaque count,HeLa,>4 µg/mL
O=c1[nH]c(=O)n([C@@H]2C[C@H](CO)C[C@H]2CO)cc1I,,,HeLa,>100 µg/mL
CCCCCCCCCCCCCCCCCCCCCCO,,syncytia,VERO,<5 µg/mL
C[C@@]1(O)[C@H](O)[C@@H](COP(=O)(O)OP(=O)(O)OP(=O)(O)O)O[C@H]1n1ccc2c(N)ncnc21,,neutral red,MA-104,>320 µM
Nc1ncnc2c1ccn2[C@@H]1C[C@H](O)[C@@H](O)[C@H]1O,LONG,,HeLa,>200 µg/mL
Nc1ncnc2c1ncn2[C@@H]1C[C@H](NC=O)[C@@H](O)[C@H]1O,,,HFF,>100 µg/mL
Cc1cccc(CCNc2nc3ccccc3n2Cc2nc(C)ccc2O)c1,,cytopathic effect,HeLa,100 µM
Cc1ccc(O)c(Cn2c(NC3CCN(CC(O)Cc4ccccc4)CC3)nc3c(C)cccc32)n1,,cytopathic effect,HeLa,0.398 µM
O=C(Nc1ccc(NC(=S)Nc2ccc(C(F)(F)F)c(Cl)c2)cc1)c1cscn1,,,HFF,>10 µg/mL
Nc1ccc2c(c1)CSSC2,LONG,cytopathic effect,HeLa,>177.9 µM
Nc1nc2ncn(O)c2c(=O)[nH]1,LONG,ELISA,BHK,4.1 µg/mL
COc1ccc(OC)c(/C(C)=N/NC(=O)c2ccncc2)c1,,MTT,HeLa cells,>4 µg/mL
OC[C@H]1CC(n2cnc3c(NC4CC4)ncnc32)C[C@@H]1CO,,,HeLa,>100 µg/mL
CCC(NC(=S)Nc1ccc(NC(=O)c2cscn2)cc1)c1cc(C(F)(F)F)cc(C(F)(F)F)c1,,,,>5 µM
COc1cc(OC)c(NC(=S)Nc2ccc(NC(=O)c3ccco3)cc2)cc1Cl,,,HFF,>10 µg/mL
Cc1cccc2c1CSSC2,LONG,cytopathic effect,HeLa,11.9 µM
CC(NC(=S)Nc1ccc(NC(=O)c2ccccc2F)cc1)c1ccc(F)cc1,A2,ELISA,HFF,>10 µg/mL
Cc1cc(C)c2nc(NCCCn3ccnc3)n(Cc3nc(C)ccc3O)c2c1,,cytopathic effect,HeLa,0.501 µM

Repeating the first 4 entries:

{"compound": "COc1cc(OC)c(NC(=S)Nc2ccc(NC(=O)c3ccco3)c(C)c2)cc1Cl", "cells": "HFF", "result": ">10 µg/mL"}
{"compound": "COC(=O)c1cc(Nc2ccc(Nc3nc(Nc4cccc(S(=O)(=O)N(CCC(N)=O)CCC(N)=O)c4)nc(Nc4cccc(S(=O)(=O)N(CCC(N)=O)CCC(N)=O)c4)n3)cc2S(=O)(=O)[O-])ccc1-c1ccc(Nc2ccc(Nc3nc(Nc4cccc(S(=O)(=O)N(CCC(N)=O)CCC(N)=O)c4)nc(Nc4cccc(S(=O)(=O)N(CCC(N)=O)CCC(N)=O)c4)n3)cc2S(=O)(=O)[O-])cc1C(=O)OC", "strain or isolate": "A2", "method": "ELISA", "cells": "HFF", "result": ">25 µM"}
{"compound": "O=C(Nc1ccc(NC(=S)Nc2cc(C(F)(F)F)cc(C(F)(F)F)c2)cc1)c1cocn1", "cells": "HFF", "result": ">10 µg/mL"}
{"compound": "CCOC(=O)c1cc(C#N)c2[nH]c3ccccc3n2c1=O", "strain or isolate": "LONG", "method": "plaque count", "cells": "HEP-2", "result": "10 µg/mL"}